{"source": "paper PMC2807033", "about": "“Rep Provides a Second Motor at the Replisome to Promote Duplication of Protein-Bound DNA” (Molecular Cell, 2009)", "binders": {"B1": {"name": "E. coli replicative helicase DnaB, purified (enzyme, UniProt P0ACB0 1-471, looked up)", "chain": "MAGNKPFNKQQAEPRERDPQVAGLKVPPHSIEAEQSVLGGLMLDNERWDDVAERVVADDFYTRPHRHIFTEMARLQESGSPIDLITLAESLERQGQLDSVGGFAYLAELSKNTPSAANISAYADIVRERAVVREMISVANEIAEAGFDPQGRTSEDLLDLAESRVFKIAESRANKDEGPKNIADVLDATVARIEQLFQQPHDGVTGVNTGYDDLNKKTAGLQPSDLIIVAARPSMGKTTFAMNLVENAAMLQDKPVLIFSLEMPSEQIMMRSLASLSRVDQTKIRTGQLDDEDWARISGTMGILLEKRNIYIDDSSGLTPTEVRSRARRIAREHGGIGLIMIDYLQLMRVPALSDNRTLEIAEISRSLKALAKELNVPVVALSQLNRSLEQRADKRPVNSDLRESGSIEQDADLIMFIYRDEVYHENSDLKGIAEIIIGKQRNGPIGTVRLTFNGQWSRFDNYAGPQYDDE", "notes": "replicative helicase DnaB, E. coli; Construct and purification are in the Supplemental Experimental Procedures; also called E. coli DnaB"}}, "biological_target": "T1, Rep helicase (E. coli), wild type (E. coli, UniProt P09980 1-673)", "T1 construct": "Rep helicase, E. coli; Construct and purification are in the Supplemental Experimental Procedures; also called WT Rep", "T1 sequence (looked up)": "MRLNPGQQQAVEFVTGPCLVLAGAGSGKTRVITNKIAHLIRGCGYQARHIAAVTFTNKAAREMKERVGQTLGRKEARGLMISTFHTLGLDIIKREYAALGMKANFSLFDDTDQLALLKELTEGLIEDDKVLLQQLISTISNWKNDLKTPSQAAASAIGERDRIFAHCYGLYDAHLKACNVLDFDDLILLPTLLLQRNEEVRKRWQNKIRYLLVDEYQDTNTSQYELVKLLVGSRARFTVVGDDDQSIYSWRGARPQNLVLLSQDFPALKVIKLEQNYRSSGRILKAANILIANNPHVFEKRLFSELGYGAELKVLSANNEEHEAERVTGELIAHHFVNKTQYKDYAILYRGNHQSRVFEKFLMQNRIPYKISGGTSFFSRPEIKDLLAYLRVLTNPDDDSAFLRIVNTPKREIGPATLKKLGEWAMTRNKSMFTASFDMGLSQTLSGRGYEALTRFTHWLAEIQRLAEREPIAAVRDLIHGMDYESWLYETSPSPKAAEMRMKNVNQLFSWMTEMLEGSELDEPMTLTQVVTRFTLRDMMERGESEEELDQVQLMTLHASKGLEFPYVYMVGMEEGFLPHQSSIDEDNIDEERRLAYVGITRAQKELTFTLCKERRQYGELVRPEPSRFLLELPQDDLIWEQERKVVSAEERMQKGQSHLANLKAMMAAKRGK", "assay": "not stated; apparent KD (equilibrium dissociation constant), Figure S5; the method is not told in the text shown (SPR is the only quantitative binding method that the paper names)", "settings": "both partners purified", "data": [{"binder": "B1", "values": [{"measurement": "Kd", "result": "< 100", "unit": "nM"}]}]}
